Results of unrelated studies side by side (data: NIAID ChemDB).

Common to all: growth or infection tests; organism: HIV-1; strain: IIIB; cell line: C8166; method: syncytia / visual reading; read-out: EC50

ECn is the concentration giving n% inhibition of infection, replication or growth. Conditions beyond the fields shown may differ between rows.

{"smiles": "Cc1cn([C@H]2C[C@H](N=[N+]=[N-])[C@@H](CO)O2)c(=O)[nH]c1=O", "value": "0.00251 µM"}
{"smiles": "COc1ccc2c(c1)CCCN2CCC(=O)N1CCN(c2ccc(C)cc2)CC1", "value": "14.98 µg/mL"}
{"smiles": "Cc1ccc(NC(=S)Nn2c(-c3ccc(Cl)cc3)c[nH]c2=S)c(C)c1", "value": "2.77 µM"}
{"smiles": "C=C(C)[C@@]1(OC(C)=O)[C@H](OC(C)=O)[C@@H]2[C@H](OC(C)=O)[C@@]3(C)O[C@@]4([C@@H]3O)[C@@H](OC(=O)c3ccccc3)[C@@H](C)C[C@H]4[C@@]2(O)[C@H](C)[C@@H]1OC(=O)c1ccccc1", "value": "0.215 µM"}
{"smiles": "S=C(Nc1ccc(Cl)cc1)Nn1c(-c2ccc(Cl)cc2)c[nH]c1=S", "value": "8.92 µM"}
{"smiles": "COc1ccc2c(c1)CCCN2CCC(=O)N1CCN(c2ccc(Cl)cc2)CC1", "value": "16.43 µg/mL"}
{"smiles": "C=C(C)[C@@]1(OC(=O)c2ccccc2)[C@H](OC(C)=O)[C@@H]2[C@H](OC(C)=O)[C@@]3(C)O[C@@]4([C@@H]3O)[C@@H](O)[C@@H](C)C[C@H]4[C@@]2(O)[C@H](C)[C@@H]1OC(C)=O", "value": "0.684 µM"}
{"smiles": "COc1ccc(-c2c[nH]c(=S)n2NC(=S)Nc2ccccc2C)cc1", "value": "3.77 µM"}
{"smiles": "COc1ccc2c(c1)CCCN2CCC(=O)N1CCN(c2ccccc2OC)CC1", "value": "13.21 µg/mL"}
{"smiles": "S=C(Nc1ccc(Cl)cc1)Nn1c(-c2ccc(Br)cc2)c[nH]c1=S", "value": "2.57 µM"}
{"smiles": "COc1ccc(N2CCN(C(=O)CCN3CCCc4cc(OC)ccc43)CC2)cc1", "value": "21.54 µg/mL"}
{"smiles": "Cc1ccc(-c2c[nH]c(=S)n2NC(=S)Nc2ccc(C)cc2C)cc1", "value": "11.75 µM"}
{"smiles": "COc1cc([C@H](O)[C@H](COC(C)=O)Oc2ccc(C(=O)CCO)cc2OC)ccc1O", "value": "2.26 µg/mL"}
{"smiles": "C=C(C)[C@@]12OC3(/C=C/C=C/CCCCC)O[C@@H]1[C@@H]1[C@@H]4O[C@]4(CO)[C@@H](O)[C@]4(O)C(=O)C(C)=C[C@H]4[C@@]1(O3)[C@H](C)[C@H]2OC(=O)CC", "value": "8.62 µM"}
{"smiles": "COc1ccc2c(c1)CCCN2CCC(=O)N1CCN(Cc2ccccc2)CC1", "value": "43.79 µg/mL"}
{"smiles": "C=C(C)[C@@]12OC3(c4ccccc4)O[C@@H]1[C@@H]1[C@@H]4O[C@]4(CO)[C@@H](O)[C@]4(O)C(=O)C(C)=C[C@H]4[C@@]1(O3)[C@H](C)[C@H]2OC(=O)C(C)C", "value": "7.35 µM"}
{"smiles": "Cc1nc2ccccc2n(CC(=O)NNC(=O)c2ccc(Cl)cc2)c1=O", "value": ">540 µM"}
{"smiles": "C=C(C)[C@]1(O)C[C@@H](C)[C@@]2(O)[C@H]([C@H]1OC(=O)c1ccccc1)[C@@H]1O[C@]1(CO)[C@@H](O)[C@]1(O)C(=O)C(C)=C[C@H]12", "value": "3.29 µM"}
{"smiles": "COc1ccc2c(c1)CCCN2CCC(=O)N1CCN(c2ccccc2)CC1", "value": "14.21 µg/mL"}
{"smiles": "C=C(C)[C@]12C[C@@H](C)[C@@]34OC(c5ccccc5)(O[C@@H]1[C@@H]3[C@@H]1O[C@]1(CO)[C@@H](O)[C@@]1(O)[C@H]4C[C@H](C)[C@@H]1OC(=O)c1ccccc1)O2", "value": "6.8 µM"}
{"smiles": "COc1ccc2c(c1)CCCN2CCC(=O)N1CCN(c2ccccn2)CC1", "value": "21.07 µg/mL"}

The last 2 rows once more:

| smiles | value |
|---|---|
| C=C(C)[C@]12C[C@@H](C)[C@@]34OC(c5ccccc5)(O[C@@H]1[C@@H]3[C@@H]1O[C@]1(CO)[C@@H](O)[C@@]1(O)[C@H]4C[C@H](C)[C@@H]1OC(=O)c1ccccc1)O2 | 6.8 µM |
| COc1ccc2c(c1)CCCN2CCC(=O)N1CCN(c2ccccn2)CC1 | 21.07 µg/mL |